Measured values from patent US20250064840A1, “DRUG DELIVERY SYSTEMS BASED ON ENDOPEROXIDES USEFUL IN DIAGNOSIS AND THERAPY, AND METHODS THEREOF” (FACULDADE DE FARMÁCIA DA UNIVERSIDADE DE LISBOA, priority 2021, published 2025).

Assay: Fe(II)-triggered tetraoxane activation and API release, UHPLC-MS
Details: room temperature, 24 hours

## COc1cccc2c1C(=O)c1c(O)c3c(c(O)c1C2=O)C[C@](O)(C(=O)CO)C[C@H]3O[C@@H]1CC(NC(=O)OC2CCCC3(C2)OOC2(OO3)C3CC4CC(C3)CC2C4)[C@@H](O)[C@@H](C)O1 (stereo partly drawn) [IIc]
Iron (II) bromide and TEMPO
  doxorubicin release after Fe(II) activation: doxorubicin was also detected

## COc1cccc2c1C(=O)c1c(O)c3c(c(O)c1C2=O)C[C@](O)(C(=O)CO)C[C@H]3O[C@@H]1CC(NC(=O)OCC2=CCCCC23OOC2(OO3)C3CC4CC2CC(O)(C4)C3)[C@@H](O)[C@@H](C)O1 (stereo partly drawn) [Compound IIe]
Iron (II) bromide and N-acetylcysteine (NAC), basic pH
  doxorubicin release after Fe(II) activation: release of doxorubicin was detected
Iron (II) bromide and TEMPO
  doxorubicin release after Fe(II) activation: doxorubicin was not detected
